Human monoclonal antibodies against the spike receptor-binding domain (heavy:light variable regions). IC50 against pseudoviruses bearing the spike of naturally observed variants; lower = stronger; >10 µg/ml means not reached at the top dose. No active / inactive call. The stated detection limit is 0.0005 µg/ml; values near or below 0.001 µg/ml lie at the floor of the assay.
Columns and labels:
Test in all cases: pseudovirus neutralization IC50; higher = weaker neutralization
[1] = molecular target: SARS-CoV-2 Omicron BA.1 spike pseudovirus
Protocol: (§1)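 Single-round VSV luciferase pseudovirus mixed with antibody dilutions for 1 h and put on Huh-7 cells for about a day; IC50 from the dose curve.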

[2] = molecular target: SARS-CoV-2 Omicron BA.2 spike pseudovirus
Protocol: as §1

[3] = molecular target: SARS-CoV-2 Omicron BA.2.75 spike pseudovirus
Protocol: as §1

[4] = molecular target: SARS-CoV-2 Omicron BA.5 spike pseudovirus
Protocol: as §1

[5] = molecular target: SARS-CoV-2 Omicron BQ.1.1 spike pseudovirus
Protocol: as §1

[6] = molecular target: SARS-CoV-2 Omicron XBB spike pseudovirus
Protocol: as §1

[7] = molecular target: SARS-CoV-2 early D614G spike pseudovirus
Protocol: as §1

B1: BD55-6460 (protein)
chain 1: HVQLVQSGAEVKKPGSSVKVSCKTSGGPFSTYAVSWVRQAPGQGLEWMGGLIPTFGTPYYAQKFQGRFTVAADESTDTVYMELSSLTFEDTAVYYCARGAVLYWFGEAFDYWGQGTLVAVSS
chain 2: QSALTQPPSASGSPGQSVTISCTGTGSDIGGYNYVSWYQQHPGTAPKLIIYEVNKRPSGVPDRFSGSKSGNTASLTVSGLLAEDEAVYYCSSYGVINNVIVVFGGGTMLTVL
For B1, the “pseudovirus neutralization IC50” value [1] was > 10 µg/mL, the “pseudovirus neutralization IC50” value [2] was > 10 µg/mL and the “pseudovirus neutralization IC50” value [3] was > 10 µg/mL. For the same binder, the “pseudovirus neutralization IC50” value [4] was > 10 µg/mL, the “pseudovirus neutralization IC50” value [5] was > 10 µg/mL and the “pseudovirus neutralization IC50” value [6] was > 10 µg/mL. The “pseudovirus neutralization IC50” value [7] was > 10 µg/mL.

B2: BD55-6463 (protein)
chain 1: QVLLVQSGAEVKKPGASVKVSCKASGYIFTSCDINWVRQAPGQGLEWMGWMNPSSGDTGSAHKFQGRVTMTRDTSISTAFMELSSLRSEDTAVYYCAIAFSSASQPLLFVDYYYGWDVWGQGTTVTVSS
chain 2: DIQMTQSPSSLSASVGDRVTITCRASLSIDNSLNWYQQKPGKAPNLLIYAASSLQSGVPSRFSGRGSGTDFTLTISSLQPEDFATYFCQQSYSTPPTFGGGTKVEIK
With B2 the “pseudovirus neutralization IC50” value [1] was > 10 µg/mL, the “pseudovirus neutralization IC50” value [2] was > 10 µg/mL and the “pseudovirus neutralization IC50” value [3] was > 10 µg/mL. The “pseudovirus neutralization IC50” value [4] was > 10 µg/mL, the “pseudovirus neutralization IC50” value [5] was > 10 µg/mL and the “pseudovirus neutralization IC50” value [6] was > 10 µg/mL. The “pseudovirus neutralization IC50” value [7] was > 10 µg/mL.

B3: BD55-6469 (protein)
chain 1: QVHLVQSGAEVKKPGASVKVSCKASGDTFPTYDFNWVRQAPGQGLEWMGWMSPKTGDTGYAHKFQGRVIMTRDTSRRTAYMELTSLRSEDTAVYYCARGVRTLPAAYNWFDPWGQGTLVTVSS
chain 2: DIQMTQSPSSLSASVGDKVTITCRASQSIGDYLHWYQHKPGKAPRLLVYAASNLQSGVPSRFSGLGSGTDFTLTISSLQPEDFATYYCQQSYSSSYTFGQGTKLEIK
B3 was tested, and the “pseudovirus neutralization IC50” value [1] was > 10 µg/mL, the “pseudovirus neutralization IC50” value [2] was > 10 µg/mL and the “pseudovirus neutralization IC50” value [3] was > 10 µg/mL. For the same binder, the “pseudovirus neutralization IC50” value [4] was > 10 µg/mL, the “pseudovirus neutralization IC50” value [5] was > 10 µg/mL and the “pseudovirus neutralization IC50” value [6] was > 10 µg/mL. The “pseudovirus neutralization IC50” value [7] was > 10 µg/mL.

B4: BD55-1249 (protein)
chain 1: EVQLLESGGGLVQPGGSLRLSCVVSGFTFGSYAMSWVRQAPGKGLEWVSAITASGVSTYYAASVRGRFSISRDNSKNTLYLQMNGLRAEDTAVYYCAKDWASGPTDYFDYWGQGTLVTVSS
chain 2: DIQMTQSPSSLSASVGDRVTITCRSSQSISTYLNWYQQKPGKAPNLLIYAASRLQSGVPSRFSGSGSGTDFTLTISSLQPEDFATYYCQQSYNTPPWTFGQGTKVEVK
B4 was tested, and the “pseudovirus neutralization IC50” value [1] was > 10 µg/mL, the “pseudovirus neutralization IC50” value [2] was > 10 µg/mL and the “pseudovirus neutralization IC50” value [3] was > 10 µg/mL. For the same binder, the “pseudovirus neutralization IC50” value [4] was > 10 µg/mL, the “pseudovirus neutralization IC50” value [5] was > 10 µg/mL and the “pseudovirus neutralization IC50” value [6] was > 10 µg/mL. The “pseudovirus neutralization IC50” value [7] was 0.0152 µg/mL.

B5: BD55-6479 (protein)
chain 1: QEQLQQWGAGLLKPAETLSLTCALYGGSFSVYYWTWIRQSPGKGLEWIGEINQSGTTTYNPSLKSRVTISVDTSKKQFSLKLNSVTAADTAVYYCARESSAAVIDNWGQGTLVTVSS
chain 2: QSALTQPASVSGSPGQSITISCTGSSSDIGRFNYVSWYQLHPGKAPKLMIYDVNKRPSGVSDRFSGSKSGNTASLTLSGLQTDDEADYYCSSYTSSSTYLLFGGGTKLTVL
For B5, the “pseudovirus neutralization IC50” value [1] was > 10 µg/mL, the “pseudovirus neutralization IC50” value [2] was > 10 µg/mL and the “pseudovirus neutralization IC50” value [3] was > 10 µg/mL. The “pseudovirus neutralization IC50” value [4] was > 10 µg/mL, the “pseudovirus neutralization IC50” value [5] was > 10 µg/mL and the “pseudovirus neutralization IC50” value [6] was > 10 µg/mL. For the same binder, the “pseudovirus neutralization IC50” value [7] was 1.43 µg/mL.

B6: BD55-1251 (protein)
chain 1: EVQLVQSGAEVKKPGESLKISCQGSRSSFTNYWIGWVRQMPGKGLEWMGVIYPDDSDTRYSPSFQGQVTISADKSISVAYLQWSSLKASDTAMYYCARRRHITGFYHFDSWGQGTLVIVSS
chain 2: DIQMTQSPSSLSASIGDRVSITCRASQNIGDYVNWYQQKPGKAPQVLIYAASTLQSGVPSRFSGSGSGTDFTLTISSLQPEDFATYYCQQTYTVLETFGQGTKVDIK
In the case of B6, the “pseudovirus neutralization IC50” value [1] is reported as 0.977 µg/mL, the “pseudovirus neutralization IC50” value [2] is reported as 1.69 µg/mL and the “pseudovirus neutralization IC50” value [3] is reported as 2.26 µg/mL. The “pseudovirus neutralization IC50” value [4] was 1.57 µg/mL, the “pseudovirus neutralization IC50” value [5] was > 10 µg/mL and the “pseudovirus neutralization IC50” value [6] was > 10 µg/mL. The “pseudovirus neutralization IC50” value [7] was 1.5 µg/mL.
